Data set [1] concerns the molecule itself. The experiment in a line: static light scattering, 2.0 mg/ml; self-association.
Data set [2] concerns the molecule itself. The experiment in a line: static light scattering, 2.3 mg/ml; self-association.
Data set [3] concerns the molecule itself. Description: static light scattering, 2.2 mg/ml; self-association.
Data set [4] deals with the molecule itself. Description: static light scattering, 2.5 mg/ml; self-association.
Data set [5] deals with the molecule itself. Description: static light scattering; self-association.
Data set [6] deals with the molecule itself. The experiment in a line: light scattering, 1.63 mg/ml; self-association.
Data set [7] concerns the molecule itself. The experiment in a line: light scattering, 1.85 mg/ml; self-association.

B1: ASV IN(49-286) F199K (enzyme)
chain: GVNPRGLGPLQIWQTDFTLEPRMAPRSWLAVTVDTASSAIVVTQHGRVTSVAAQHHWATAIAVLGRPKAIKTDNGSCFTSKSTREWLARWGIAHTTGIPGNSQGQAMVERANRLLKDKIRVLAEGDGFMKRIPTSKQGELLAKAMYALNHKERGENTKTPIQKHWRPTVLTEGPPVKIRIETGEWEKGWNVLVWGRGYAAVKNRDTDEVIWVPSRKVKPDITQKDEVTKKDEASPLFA
With B1, the binding result in data set [1] is given as “binds”.

B2: ASV IN(1-286) wild type (enzyme)
chain: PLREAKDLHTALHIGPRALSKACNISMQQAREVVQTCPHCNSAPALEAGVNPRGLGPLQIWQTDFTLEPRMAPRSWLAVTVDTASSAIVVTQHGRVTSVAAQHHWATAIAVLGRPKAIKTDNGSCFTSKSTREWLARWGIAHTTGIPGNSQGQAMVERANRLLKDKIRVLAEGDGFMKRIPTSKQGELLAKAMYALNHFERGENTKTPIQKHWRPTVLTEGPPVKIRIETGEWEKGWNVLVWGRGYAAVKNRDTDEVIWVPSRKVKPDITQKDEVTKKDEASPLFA
For the protein B2, the binding result in data set [2] is recorded as “binds”.

B3: ASV IN(1-286) E157C/F199K (enzyme)
chain: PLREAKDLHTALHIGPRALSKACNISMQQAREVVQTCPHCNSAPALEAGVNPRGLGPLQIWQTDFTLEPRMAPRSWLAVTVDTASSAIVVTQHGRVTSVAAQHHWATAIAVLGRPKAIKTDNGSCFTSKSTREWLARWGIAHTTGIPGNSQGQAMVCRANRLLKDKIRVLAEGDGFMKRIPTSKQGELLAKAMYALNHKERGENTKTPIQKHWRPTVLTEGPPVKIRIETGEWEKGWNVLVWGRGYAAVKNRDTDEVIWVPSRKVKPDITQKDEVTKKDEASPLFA
For B3, the binding result in data set [3] was “binds”.

B4: ASV IN(1-286) F199K (enzyme)
chain: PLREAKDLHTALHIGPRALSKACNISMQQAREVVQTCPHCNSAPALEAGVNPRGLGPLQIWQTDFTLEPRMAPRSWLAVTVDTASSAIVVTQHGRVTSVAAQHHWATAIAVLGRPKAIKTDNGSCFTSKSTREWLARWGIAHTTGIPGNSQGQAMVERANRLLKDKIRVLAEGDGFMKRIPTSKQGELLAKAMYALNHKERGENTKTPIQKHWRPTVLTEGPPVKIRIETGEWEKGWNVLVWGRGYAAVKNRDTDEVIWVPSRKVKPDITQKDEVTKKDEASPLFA
As to B4, the binding result in data set [4] is “binds”.

B5: ASV IN(1-286) W259A (enzyme)
chain: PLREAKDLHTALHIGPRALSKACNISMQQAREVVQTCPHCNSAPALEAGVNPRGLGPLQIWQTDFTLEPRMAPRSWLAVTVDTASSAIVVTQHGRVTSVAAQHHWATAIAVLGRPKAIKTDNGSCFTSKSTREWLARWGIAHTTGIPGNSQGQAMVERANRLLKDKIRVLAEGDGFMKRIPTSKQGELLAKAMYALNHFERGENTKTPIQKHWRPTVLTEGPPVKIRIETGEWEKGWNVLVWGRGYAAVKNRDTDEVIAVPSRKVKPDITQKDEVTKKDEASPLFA
Take B5: the binding result in data set [5] is “no binding (tested: 2.5 mg/ml)”.

B6: ASV IN(1-286) C23S/C125S/F199K/W259A (enzyme)
chain: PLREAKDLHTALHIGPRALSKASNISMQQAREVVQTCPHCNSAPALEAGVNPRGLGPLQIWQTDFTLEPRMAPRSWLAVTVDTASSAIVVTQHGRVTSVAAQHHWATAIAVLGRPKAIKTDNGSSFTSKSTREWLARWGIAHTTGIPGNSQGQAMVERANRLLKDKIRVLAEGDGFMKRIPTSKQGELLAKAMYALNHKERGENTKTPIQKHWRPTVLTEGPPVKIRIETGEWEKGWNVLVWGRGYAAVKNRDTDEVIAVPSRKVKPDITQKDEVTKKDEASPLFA
As to B6, the binding result in data set [5] was “no binding (tested: 1.0 mg/ml)”.

B7: HIV-1 IN wild type (His6-tagged, light scattering and SAXS preparations) (enzyme)
chain: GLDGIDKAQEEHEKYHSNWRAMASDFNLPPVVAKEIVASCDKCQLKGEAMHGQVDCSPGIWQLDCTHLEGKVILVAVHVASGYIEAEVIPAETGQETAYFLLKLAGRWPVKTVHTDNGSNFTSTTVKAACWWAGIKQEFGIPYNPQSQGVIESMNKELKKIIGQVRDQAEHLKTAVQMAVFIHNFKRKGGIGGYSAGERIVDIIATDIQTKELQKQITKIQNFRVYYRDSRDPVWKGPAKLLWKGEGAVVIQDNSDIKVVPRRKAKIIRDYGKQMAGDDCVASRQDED
notes: also called wild type HIV IN; HIV-1 IN WT
Consider B7, for which the binding result in data set [6] is “binds”.

B8: HIV-1 IN E11K (enzyme)
chain: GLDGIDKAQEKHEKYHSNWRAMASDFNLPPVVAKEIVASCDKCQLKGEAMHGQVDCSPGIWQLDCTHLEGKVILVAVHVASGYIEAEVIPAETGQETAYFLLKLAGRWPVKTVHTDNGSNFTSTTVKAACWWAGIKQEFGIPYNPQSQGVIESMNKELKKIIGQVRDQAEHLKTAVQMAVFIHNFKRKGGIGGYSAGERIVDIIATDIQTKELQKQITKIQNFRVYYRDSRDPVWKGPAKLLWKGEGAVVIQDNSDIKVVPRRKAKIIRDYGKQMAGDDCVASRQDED
For B8, the binding result in data set [7] is given as “binds”.

Values taken from patent US20130280271A1, “Inhibition of human immunodeficiency virus integrase reaching dimer formation utilizing single-chain variable antibodies” (INSTITUTE FOR CANCER RESEARCH, published 2013).
